Compound potency records, mixed from different reports. Data source: NIAID ChemDB in PubChem.

All rows: growth or infection tests; species: HIV-1

Blank or dashed fields: not listed here.

compound	cell line	read by	strain	endpoint	mutations	conditions	value
COc1cc([C@H](Cc2ccccc2)n2cc(C(=O)NC(=O)C[C@H](C)C(=O)O)c(=O)cc2Cc2ccccc2)oc(=O)c1	293T	ELISA	NL4-3	EC50			3.2 µM
CN(C)c1nc(N)nc2c1ncn2CCOCP(=O)(O)O	MT-4	cytopathic effect / MTT	IIIB	EC50			0.4 µg/mL
O=S(=O)(c1ccccc1)c1cscc1NCC(O)CN(CC1CCCC1)S(=O)(=O)c1ccccc1	CEM	p24	IIIB	EC50			<1 µM
CCN(CC)c1cc(OCc2ccccc2)cc2c1[C@H]1COc3cc(OC)ccc3[C@H]1O2	CEM + CEM-SS	cytopathic effect / XTT	RF	EC50			>200 µM
CSCC[C@H](NC(=O)[C@H](Cc1ccc(O)cc1)NC(=O)[C@H](CCCCN)NC(=O)[C@@H](N)Cc1c[nH]c2ccccc12)C(=O)N[C@H](C(=O)N[C@H](CCSC)C(=O)O)C(C)C	PBMC	p24	BAL R5	EC50			>10 µM
CN(C(=O)[C@H](Cc1ccccc1)NC(=O)Cc1c[nH]c2ccc(Cl)cc12)c1ccccc1	HeLa		NL4-3	EC50			0.51 µM
C=C(C)C(=O)OCCOP(=O)(O)O	MT-4	cytopathic effect		EC50			1.6 µg/mL
COCCOCCOCCOC(=O)C1(C(=O)OCCOCCOCCOC)C2c3cc4c5c6c3-c3c(cc7c8c3C63CN(CCOCCOCCN)CC36c3c-5c(cc5ccc9cc(c-8c6c9c35)C7)C4)C21	CEM	cytopathic effect	IIIB	EC50			>4 µM
CC(CC(F)(F)C(F)(F)C(F)(F)F)(C(=O)OCCOP(=O)(O)O)C(F)(F)C(F)(F)C(F)(F)F	MT-4	cytopathic effect		EC50			9.3 µg/mL
Nc1ccn([C@H]2CC[C@@H](CO)O2)c(=O)n1	MT-4	MTT	IIIB	EC50			0.206 µM
Nc1nc(NC2CCCCC2)c2ncn(CCOCP(=O)(O)O)c2n1	CEM	cytopathic effect / MTT	IIIB	EC50			20 µg/mL
OC[C@H]1C[C@@H](n2cnc3cncnc32)CO1	ATH8	cytopathic effect	IIIB	EC50			>100 µM
COc1ncc(OC)c2c(C(=O)C(=O)N3CCC(=C(C#C[Si](C)(C)C)c4ccccc4)CC3)c[nH]c12	HeLa	luciferase		EC50			<1 µM
Cc1cc2cn[nH]c2cc1NC(=O)COc1ccc(Cl)cc1C(=O)c1cccc(C#N)c1	HeLa + HELA CD4+	β-galactosidase	HXB2	EC50	RT-K103N P225H		<0.01 µM
CS(=O)(=O)Oc1ccccc1NC(=O)c1ccccc1Sc1ccc([N+](=O)[O-])cc1	MT-4		LAI	EC50			>50 µM
Cc1ncnc(C)c1C(=O)N1C[C@H]2CN(CCC(c3ccccc3)C3CCN(CC(F)F)CC3)C[C@H]2C1		cell fusion		EC50			0.137 µM
Cc1cc(C#N)cc(C(=O)c2cc(Cl)ccc2OCC(=O)Nc2ccc(OCCCN3CC=CC3)cc2C)c1	HeLa + HELA CD4+	β-galactosidase	HXB2	EC50	RT-V106A Y181C		<0.01 µM
COc1ccc2c(c1)OC[C@@H]1c3cc(O)c(OC)cc3O[C@H]21	CEM + CEM-SS	cytopathic effect / XTT	RF	EC50			>1.75 µM
CC1C(Sc2nnnn2-c2cccc3ccccc23)C1c1ccccc1Cl	C8166	p24	WT	EC50			<0.05 µM
Clc1cc(CN2CCCNCCNCCCNCC2)cc(Cl)n1	PBMC	p24	NL4-3 X4	EC50			3 µM
O=C(Nc1ccccc1)c1cc(S(=O)(=O)N2CCNNC2=O)c(S)cc1Cl	CEM	cytopathic effect / XTT		EC50			4.69 µM
O=C(CSc1nnnn1-c1cccc2ccccc12)Nc1cccc(Cl)c1Cl	C8166	p24	RT-K103N Y181C	EC50	1(RT-K103N Y181C)		≥0.1 µM
CC(C)[C@@H](CO)n1cc(C(=O)O)c(=O)c2nc(Cc3cccc(Cl)c3F)ccc21	HeLa	luciferase		EC50		0% human serum	>2.5 µM
c1ccc(CNCCc2ccc(CN3CCNCCCCCCCNCC3)cc2)nc1	MT-4	p24	IIIB	EC50			0.032 µg/mL
COc1ccc(S(=O)(=O)N(CC(C)C)CC(O)CN2CSC[C@H]2C(=O)NC(C)(C)C)cc1	CEM	p24	IIIB	EC90			1 µM
C[C@H](C[n+]1c[nH]c2c(Nc3ccccc3)nc(N)nc21)OCP(=O)(O)O	CEM	cytopathic effect / MTT	IIIB	EC50			11 ± 6 µg/mL
COc1ccc2c(c1)OC[C@@H]1c3cc(O)c(OCc4ccccc4)cc3O[C@]21C	CEM + CEM-SS	cytopathic effect / XTT	RF	EC50			>18.2 µM
Cc1[nH]c2ccccc2c1CC(=O)N[C@@H](Cc1ccccc1)C(=O)N(C)c1ccccc1	MT-4	entry / luminescence	NL4-3	EC50			0.42 µM
COc1ncc(OC)c2c(C(=O)C(=O)N3CCC(=Cc4ccccc4)CC3)c[nH]c12	HeLa	luciferase		EC50			>5 µM
Oc1cc2c(cc1OCc1ccccc1)O[C@@H]1c3ccccc3OC[C@H]21	CEM + CEM-SS	cytopathic effect / XTT	RF	EC50			>2.48 µM
Cc1cc(S(N)(=O)=O)ccc1NC(=O)COc1ccc(Cl)cc1C(=O)c1cc(F)cc(C(F)(F)F)c1	HeLa + HELA CD4+	β-galactosidase	HXB2	EC50	RT-V108I Y181C		0.011–0.1 µM
COc1cc(O)c(CC=C(C)C)c(O)c1C(=O)/C=C/c1ccc(O)cc1	C8166	RT activity	IIIB	EC50			1.22 µM
Cc1ncnc(C)c1C(=O)N1C[C@H]2CN(CCC(c3cc(F)cc(F)c3)C3CN(S(=O)(=O)C4CC4)C3)C[C@H]2C1		cell fusion		EC50			0.063 µM
Cc1cc(S(N)(=O)=O)ccc1NC(=O)COc1ccc(Cl)cc1C(=O)c1cc(Cl)cc(Cl)c1	HeLa + HELA CD4+	β-galactosidase	HXB2 (RT-K103N Y181C) Recombinant	EC50	RT-K103N Y181C		<0.01 µM
COC[C@H]1c2cc(O)c(OCc3ccccc3)cc2O[C@@H]1c1ccc(OC)cc1	CEM + CEM-SS	cytopathic effect / XTT	RF	EC50			>18.7 µM
COc1ccccc1NC(=O)c1ccccc1Sc1ccc([N+](=O)[O-])cc1	MT-4		LAI	EC50			>50 µM
Cc1cc(S(N)(=O)=O)ccc1NC(=O)COc1ccc(Cl)cc1C(=O)c1cccc(C#N)n1	HeLa + HELA CD4+	β-galactosidase	HXB2	EC50	RT-L100I		<0.01 µM
CC(CC(F)(OC(F)(F)C(F)(OC(F)(F)C(F)(F)C(F)(F)F)C(F)(F)F)C(F)(F)F)(C(=O)OCCOP(=O)(O)O)C(F)(OC(F)(F)C(F)(OC(F)(F)C(F)(F)C(F)(F)F)C(F)(F)F)C(F)(F)F	MT-4	cytopathic effect		EC50			12 µg/mL
Nc1nc(NC2CC2)c2ncn(CCOCP(=O)(O)O)c2n1	CEM	cytopathic effect / MTT	IIIB	EC50			0.16 µg/mL
CC(C)(C)NC(=O)[C@@H]1CCCN1C(=O)C(O)[C@H](Cc1ccccc1)NC(=O)OCc1ccccc1	MOLT-4	RT activity	C-2	EC50			>40 µM
O=C(c1ccccc1)N(CCc1ccccc1)C[C@H](O)CN(CC1CCCC1)S(=O)(=O)c1nc2ccccc2[nH]1	CEM	p24	IIIB	EC90			1 µM
Cc1ncnc(C)c1C(=O)N1C[C@H]2CN(CCC(c3ccccc3)C3CCN(CC(F)(F)F)CC3)C[C@H]2C1		cell fusion		EC50			0.034 µM
Nc1nccc2c1ncn2[C@@H]1C[C@H](O)[C@@H](O)[C@H]1O	PBMC	p24	A018	EC50			2.84 µM
COc1ccc2c(c1)OC[C@]1(C)c3cc(O)c(OCc4ccccc4)cc3O[C@H]21	CEM + CEM-SS	cytopathic effect / XTT	RF	EC50			>10.1 µM
Nc1ncnc2c1ncn2[C@H]1CO[C@@H](CO)C1	ATH8	cytopathic effect	IIIB	EC50			10 µM
Nc1nccc2c1ncn2[C@@H]1O[C@H](CO)[C@@H](O)[C@H]1O	PBMC	p24	A012	EC50			0.15 µM
CN1C(=O)[C@H](c2cc(Cl)c(O)c(Cl)c2)NC(=O)[C@H]2NC(=O)[C@H](c3cc(Cl)c(O)c(Cl)c3)NC(=O)[C@H](NC(=O)C(=O)c3cc(Cl)c(O)c(Cl)c3)c3c[nH]c4ccc(cc34)-c3cc2cc(c3O)Oc2ccc(cc2)C[C@@H]1C(=O)N[C@H](C(=O)O)c1ccc(O)cc1	CD4+ T-cell	ELISA	Clinical isolate	EC50			<1.3 µM
Cc1cc(C)cc(C(=O)c2cc(Cl)ccc2OCC(=O)Nc2ccc(S(N)(=O)=O)cc2C)c1	HeLa + HELA CD4+	β-galactosidase	HXB2	EC50	RT-P236L		<0.01 µM
Nc1n[nH]c2ccc(CN3C(=O)N(CC4CC4)[C@H](Cc4ccccc4)[C@H](O)[C@@H](O)[C@H]3Cc3ccccc3)cc12	MT-2		RF	EC50			<0.114 µM
Cc1ncnc(C)c1C(=O)N1C[C@H]2CN(CCC(c3ccccc3)C3CN(CC(F)(F)F)C3)C[C@H]2C1		cell fusion		EC50			5 µM
Nc1nccc2c1ncn2[C@H]1CC[C@@H](CO)C1	PBMC	p24	A018	EC50			2 µM
C[C@H](C[n+]1c[nH]c2c(N)nc(N)nc21)OCP(=O)(O)O	MT-4	cytopathic effect / MTT	IIIB	EC50			0.293 ± 0 µg/mL
COc1ccccc1NC(=O)c1ccccc1S(=O)(=O)c1ccc([N+](=O)[O-])cc1	MT-4		LAI	EC50			>50 µM
Cc1cc(C#N)cc(C(=O)c2cc(Cl)ccc2OCC(=O)Nc2cnc(S(N)(=O)=O)cc2C)c1	HeLa + HELA CD4+	β-galactosidase	HXB2	EC50	RT-P225H		<0.01 µM
Cc1ncnc(C)c1C(=O)N1C[C@H]2CN(CCC(c3ccccc3)C3CN(S(=O)(=O)C(C)C)C3)C[C@H]2C1		cell fusion		EC50			0.093 µM
O=C(CSc1nnnn1-c1ccccc1C(F)F)Nc1ccccc1[N+](=O)[O-]	C8166	p24	RT-K103N Y181C	EC50	1(RT-K103N Y181C)		≥0.1 µM
COc1ncc(OC)c2c(C(=O)C(=O)N3CCC(=C(c4ccccc4)c4ccccc4)CC3)c[nH]c12	HeLa	luciferase		EC50			<1 µM
O=C(Nc1ccc(Cl)cc1)c1cc(S(=O)(=O)N2CCNNC2=O)c(S)cc1Cl	CEM	cytopathic effect / XTT		EC50			19.8 µM
COC(=O)[C@@H](C)NP(=O)(OC[C@@H]1C=C[C@H](n2cc(C)c(=O)[nH]c2=O)O1)Oc1ccccc1	CEM + CEM/0		IIIB	EC50			3 µM
CC(C)(C)c1ccc(-n2nnnc2SCC(=O)Nc2ccccc2Cl)c(Br)c1	C8166	luciferase	WT	EC50			<0.05 µM
COC(=O)c1ccc(-c2ncc(OC)c3c(C(=O)C(=O)N4CCC(=C(C#N)c5ccccc5)CC4)c[nH]c23)cc1	HeLa	luciferase		EC50			<1 µM
Nc1ncnc2c1ncn2[C@H]1CC[C@@H](CO)O1	PBMC	p24	A018	EC50			4.8 µM
CCCCCCN1C(=O)N(Cc2ccc3[nH]nc(N)c3c2)[C@H](Cc2ccccc2)[C@H](O)[C@@H](O)[C@H]1Cc1ccccc1	MT-2		RF	EC90			0.756 µM
C=CCNc1nc(N)nc2c1ncn2CCOCP(=O)(O)O	MT-4	cytopathic effect / MTT	IIIB	EC50			>100 µg/mL
O=C(COc1ccc(Cl)cc1C(=O)c1ccccc1)Nc1ccc2cn[nH]c2c1	HeLa + HELA CD4+	β-galactosidase	HXB2 (RT-K103N Y181C) Recombinant	EC50	RT-K103N Y181C		0.011–0.1 µM
Nc1ncnc2c1ncn2[C@H]1CC[C@@H](CO)O1	ATH8	cytopathic effect	IIIB	EC50			7.5 µM
COc1ncc(OC)c2c(C(=O)C(=O)N3CCC(=C(c4ccccc4)c4ccc(F)cc4)CC3)c[nH]c12	HeLa	luciferase		EC50			<1 µM
COc1ccc2c(c1)OC[C@@H]1c3cc(CC=C(C)C)c(OCc4ccccc4)cc3O[C@H]21	CEM + CEM-SS	cytopathic effect / XTT	RF	EC50			>35.8 µM
COc1ccccc1NC(=O)c1ccccc1S(=O)(=O)c1ccc([N+](=O)[O-])cc1.C[N+](C)(C)CCO	H9		LAI	EC50			10 µM
COc1cnc(Cl)c2[nH]cc(C(=O)C(=O)N3CCC(=C(C#N)c4ccccn4)CC3)c12	HeLa	luciferase		EC50			<1 µM
C[C@@H](Cn1cnc2c(=O)[nH]c(N)nc21)OCP(=O)(O)O	CEM + CEM-SS	cytopathic effect / XTT	LAV-Bru	EC50			12 µM
COC(=O)c1ccc(NC(=O)c2ccccc2Sc2ccc([N+](=O)[O-])cc2)c(OC)c1	MT-4		LAI	EC50			>50 µM
CCC(=O)N1CCC(C(CCN2C[C@@H]3CN(C(=O)c4c(C)ncnc4C)C[C@@H]3C2)c2ccccc2)CC1		cell fusion		EC50			>5 µM
O=C(CSc1nccn1-c1cccc2ccccc12)Nc1ccccc1[N+](=O)[O-]	C8166	p24	WT	EC50			<0.05 µM
Nc1nc2c(ncn2[C@H]2CO[C@@H](CO)C2)c(=O)[nH]1	ATH8	cytopathic effect	IIIB	EC50			30 µM
Cc1cc2[nH]cnc2cc1NC(=O)COc1ccc(Cl)cc1C(=O)c1cc(F)cc(C(F)(F)F)c1	HeLa + HELA CD4+	β-galactosidase	HXB2	EC50	RT-Y181C		<0.01 µM
Nc1n[nH]c2ccc(CN3C(=O)N(CC4CCC4)[C@H](Cc4ccccc4)[C@H](O)[C@@H](O)[C@H]3Cc3ccccc3)cc12	MT-2		RF	EC50			<0.018 µM

7 of the rows above, restated:

compound	cell line	read by	strain	endpoint	mutations	conditions	value
CS(=O)(=O)Oc1ccccc1NC(=O)c1ccccc1Sc1ccc([N+](=O)[O-])cc1	MT-4		LAI	EC50			>50 µM
Nc1ncnc2c1ncn2[C@H]1CO[C@@H](CO)C1	ATH8	cytopathic effect	IIIB	EC50			10 µM
COc1ccc2c(c1)OC[C@]1(C)c3cc(O)c(OCc4ccccc4)cc3O[C@H]21	CEM + CEM-SS	cytopathic effect / XTT	RF	EC50			>10.1 µM
COc1ccc2c(c1)OC[C@@H]1c3cc(CC=C(C)C)c(OCc4ccccc4)cc3O[C@H]21	CEM + CEM-SS	cytopathic effect / XTT	RF	EC50			>35.8 µM
OC[C@H]1C[C@@H](n2cnc3cncnc32)CO1	ATH8	cytopathic effect	IIIB	EC50			>100 µM
Nc1ccn([C@H]2CC[C@@H](CO)O2)c(=O)n1	MT-4	MTT	IIIB	EC50			0.206 µM
Cc1[nH]c2ccccc2c1CC(=O)N[C@@H](Cc1ccccc1)C(=O)N(C)c1ccccc1	MT-4	entry / luminescence	NL4-3	EC50			0.42 µM

Two numbers with a dash give a range or band. Lines come from different laboratories, so protocols vary. ECn is the concentration giving n% inhibition of infection, replication or growth.